Columns and labels:
Homo sapiens [1] = species on record: Homo sapiens; assay: Selectivity ratio of Ki for human cloned mu opioid receptor to Ki for human cloned delta opioid receptor
Homo sapiens [2] = species on record: Homo sapiens; assay: Selectivity ratio of Ki for human cloned kappa opioid receptor to Ki for human cloned delta opioid receptor
[3] = target: Delta-type opioid receptor (Homo sapiens) (UniProt P41143); assay: Agonist activity at human delta opioid receptor by [35S]GTPgammaS binding assay relative to SNC80

Protein sequences, listed by entry. Tags and fused reporters are not part of them.
UniProt P41143, whole entry, looked up: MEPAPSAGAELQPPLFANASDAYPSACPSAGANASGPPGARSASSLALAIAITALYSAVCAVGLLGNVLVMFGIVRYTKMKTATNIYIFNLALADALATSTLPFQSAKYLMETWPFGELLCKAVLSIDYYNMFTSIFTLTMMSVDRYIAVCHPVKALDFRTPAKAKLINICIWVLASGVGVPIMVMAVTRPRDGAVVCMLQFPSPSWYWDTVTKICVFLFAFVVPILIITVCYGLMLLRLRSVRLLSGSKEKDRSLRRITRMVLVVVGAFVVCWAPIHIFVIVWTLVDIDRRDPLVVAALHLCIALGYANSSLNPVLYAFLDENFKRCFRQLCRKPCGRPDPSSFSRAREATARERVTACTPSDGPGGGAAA

Row | SMILES | Ratio Ki (Homo sapiens [1]) | Ratio Ki (Homo sapiens [2]) | Emax [3] [%]
1 | C=CCCN1CCC(N(c2ccc(C(=O)N(CC)CC)cc2)c2cccc(O)c2)CC1 | 127 | 96 | 77
2 | CCN(CC)C(=O)c1ccc(N(c2cccc(OC)c2)C2CCN(CCc3ccoc3)CC2)cc1 |  |  | 115
3 | CCN(CC)C(=O)c1ccc(N(c2cccc(O)c2)C2CCN(CCc3nccn3C)CC2)cc1 | 452 | 2690 | 92
4 | CCN(CC)C(=O)c1ccc(N(c2cccc(O)c2)C2CCN(CCc3ccsc3)CC2)cc1 | 470 | 1820 | 97
5 | CCN(CC)C(=O)c1ccc(N(c2cccc(OC)c2)C2CCN(CCc3cccs3)CC2)cc1 |  |  | 173
6 | CCN(CC)C(=O)c1ccc(N(c2cccc(O)c2)C2CCN(CCc3ccco3)CC2)cc1 | 276 | 632 | 101
7 | CCN(CC)C(=O)c1ccc(N(c2cccc(O)c2)C2CCN(CCc3cccs3)CC2)cc1 | 278 | 696 | 104
8 | CCN(CC)C(=O)c1ccc(N(c2cccc(O)c2)C2CCN(CCc3ccoc3)CC2)cc1 | 802 | 550 | 105
9 | CCN(CC)C(=O)c1ccc(N(c2cccc(O)c2)C2CCN(CCc3c[nH]cn3)CC2)cc1 | 192 | 901 | 105
10 | CCN(CC)C(=O)c1ccc(N(c2cccc(O)c2)C2CCN(CCC3CCCCC3)CC2)cc1 | 125 | 315 | 106
11 | CCN(CC)C(=O)c1ccc(N(c2cccc(O)c2)C2CCN(CCc3ccccn3)CC2)cc1 | 854 | 8520 | 98
12 | CCN(CC)C(=O)c1ccc(N(c2cccc(OC)c2)C2CCN(CCc3ccccc3)CC2)cc1 |  |  | 101
13 | CCN(CC)C(=O)c1ccc(N(c2cccc(O)c2)C2CCN(CCc3ccncc3)CC2)cc1 | 1510 | 4460 | 111
14 | CCN(CC)C(=O)c1ccc(N(c2cccc(O)c2)C2CCN(CCC3CC3)CC2)cc1 | 129 | 522 | 80
15 | CCN(CC)C(=O)c1ccc(N(c2cccc(O)c2)C2CCN(CC(C)c3ccccc3)CC2)cc1 (centres undefined) | 463 | 1560 | 101
16 | CCN(CC)C(=O)c1ccc(N(c2cccc(O)c2)C2CCN(CCc3cccc(F)c3)CC2)cc1 | 670 | 1930 | 92
17 | CCN(CC)C(=O)c1ccc(N(c2cccc(O)c2)C2CCN(CCc3ccccc3F)CC2)cc1 | 342 | 1270 | 111
18 | CCN(CC)C(=O)c1ccc(N(c2cccc(O)c2)C2CCN(CCc3ncc[nH]3)CC2)cc1 | 4170 | 3960 | 118
19 | CCN(CC)C(=O)c1ccc(N(c2cccc(OC)c2)C2CCN(CCc3ncc[nH]3)CC2)cc1 |  |  | 193

— ChEMBL document CHEMBL1156083, “N,N-Diethyl-4-[(3-hydroxyphenyl)(piperidin-4-yl)amino] benzamide derivatives: the development of diaryl amino piperidines as potent delta opioid receptor agonists with in vivo anti-nociceptive activity in rodent models” (Bioorg Med Chem Lett, 2009)
